Compound potency records, mixed from different reports. Data source: NIAID ChemDB in PubChem.

All rows: tests in culture; agent: Mycobacterium tuberculosis

Rows are shuffled and stem from different studies. MIC bound: limit read from a one-dose screen. Blank or dashed fields: not listed here. ECn: concentration that inhibits the pathogen or its effect by n%. Inhibition is in % at the dose shown (toxicity tests: loss of growth or viability).

smiles	strain or isolate	read by	measure	tested at	result
CC1=C(C)C(=O)C(C)=C(C)C1=O	H37Rv		MIC		>100 µg/mL
CC(/C=C1/C(=O)N(C)C(CC(C)C(Cl)(Cl)Cl)C(=O)N1C)C(Cl)(Cl)Cl	H37Rv	BACTEC	MIC bound		>12.5 µg/mL
CC(=O)c1ccc(NC(=O)CC(=O)Nc2ccc(C(C)=O)cc2)cc1	H37Rv		MIC		100 µg/mL
CC(C)c1cccc(C(C)C)c1NC(=O)C(=O)CC(=O)CC(c1ccccc1)c1c(O)c2ccccc2oc1=O	H37Rv	BACTEC	MIC bound		>12.5 µg/mL
CC(=O)Oc1ccccc1C(=O)O	H37Rv		MIC		100 µg/mL
O=c1cc(-c2ccccc2-c2cccc3c(=O)cc(-c4ccccc4)oc23)oc2ccccc12			EC50		>12.5 µg/mL
O=[N+]([O-])c1ccc(/C=C/c2ccccn2)cc1	H37Rv		MIC		100 µg/mL
NNC(=O)C1C2c3ccccc3C(c3ccccc32)C1C(=O)O	H37Rv	BACTEC	inhibition	12.5 µg/mL	3%
CCCCCNCCNCC12CC3CC(CC(C3)C1)C2			MIC		50 µM
OCCCOc1ccccc1	H37Rv		MIC		1000 µg/mL
C/C(=N\NC(=O)c1ccccc1O)c1c(O)cc(C)oc1=O	H37Rv	BACTEC	inhibition	12.5 µg/mL	4%
CCCCC(CC)CN1CN(CC(CC)CCCC)CC(C)(NCCNCc2ccc(OC)c(OC)c2)C1			MIC		50 µM
Cc1c(N=CN(C)C)c(=O)n(-c2ccccc2)n1C	H37Rv	BACTEC	MIC		≥12.8 µg/mL
CC(C)c1ccc2c(c1)CC[C@H]1[C@](C)(CNCCNCCC(c3ccccc3)c3ccccc3)CCC[C@]21C			MIC		12.5 µM
O=C(/C=C/c1ccccn1)c1ccccn1	H37Rv		inhibition	12.5 µg/mL	42%
CCCCC(CC)CN1CN(CC(CC)CCCC)CC(C)(NCCNN2CCCC2)C1			MIC		50 µM
CCOC(=O)C(C(=O)OCC)N1C(=O)c2ccccc2C1=O	H37Rv		MIC		>100 µg/mL
Clc1ccc(CCNCCNCC(c2ccccc2)c2ccccc2)c(Cl)c1			MIC		6.25 µM
CCCCCCCC1(N=[N+]=[N-])C(=O)c2ccccc2N(C)C1=O	H37Rv	BACTEC	inhibition	12.5 µg/mL	17%
COc1ccc(CCNCCNCCCN2CCCC2=O)cc1			MIC		25 µM
C[C@@](O)(/C=C/[C@H]1CC=CC(=O)O1)[C@@H](C[C@@H](O)\C=C/C=C\C=C\CO)OP(=O)(O)O	H37Rv	BACTEC	MIC		≥12.5 µg/mL
COc1ccc2c(c1)OC(c1ccccc1)CC2=O			inhibition	12.5 µg/mL	0%
ON=C1CCCCC1	H37Rv		MIC		100 µg/mL
CN(C)c1ccc(/C=C/C(=O)c2ccccn2)cc1	H37Rv		EC50		>12.5 µg/mL
c1ccc2ncccc2c1	H37Rv		MIC		100 µg/mL
O=C1c2ccccc2C(=O)c2c1oc1ccc3ccccc3c21	H37Rv	resazurin	MIC bound		>6.25 µg/mL
CCCCCC(C)(O)C#CC(C)(O)CCCCC	H37Rv		MIC		>100 µg/mL
COc1ccc(C(=O)/C=C/c2ccco2)c(O)c1			EC50		>12.5 µg/mL
CCOC(=O)CCBr	H37Rv		MIC		>100 µg/mL
CC(NCCN[C@@H]1C[C@@H]2C[C@H]([C@H]1C)C2(C)C)c1cccc2ccccc12			MIC		50 µM
OCCCCCNCCNCC12CC3CC(CC(C3)C1)C2			MIC		50 µM
CCCCC(CC)CN1CN(CC(CC)CCCC)CC(C)(NCCNCc2cccc(OC)c2OC)C1			MIC		25 µM
NC(=O)c1cccc2c1Oc1ccccc1S2	H37Rv		MIC		100 µg/mL
O=C1C2=C(Nc3ccccc3N2)OC1c1ccncc1	H37Rv	BACTEC	inhibition	12.5 µg/mL	-4%
Cl.c1ccc(Nc2cccc3ccccc23)nc1	H37Rv		MIC		>100 µg/mL
CC1=CC(=Nc2ccc(N(C)C)cc2)C=CC1=O	H37Rv	resazurin	MIC bound		>6.25 µg/mL
C=C(C)C(CCC#N)(CCC#N)C(C)=O	H37Rv		MIC		>100 µg/mL
c1ccc2c(c1)CC(NCCNC13CC4CC(CC1C4)C3)C2			MIC		50 µM
NC(=NC1CCC(C2CCC(N)CC2)CC1)C(N)=NC1CCC(C2CCC(N)CC2)CC1	H37Rv	resazurin	inhibition	6.25 µg/mL	61%
CC(C)c1ccc2c(c1)CC[C@H]1[C@](C)(CNCCNCCc3ccc(O)cc3)CCC[C@]21C			MIC		25 µM
CN=c1ncc2nc(C)c(C)n(C)c-2n1	H37Rv	BACTEC	MIC		≥12.5 µg/mL
Cl.c1ccc(NCCCN2CCCCC2)nc1	H37Rv		MIC		>100 µg/mL
CC1=NN(C(=O)c2ccncc2)C(=O)C1N=Nc1ccc2ccccc2c1	H37Rv	BACTEC	inhibition	12.8 µg/mL	15%
CCCCCC(C)NCCNCc1ccccc1Sc1ccccc1CO			MIC		50 µM
CN1C[C@H](C(=O)N[C@]2(C)O[C@@]3(O)[C@@H]4CCCN4C(=O)[C@H](Cc4ccccc4)N3C2=O)C=C2c3cccc4[nH]cc(c34)C[C@H]21	H37Rv	BACTEC	MIC bound		>12.8 µg/mL
CCCCCCCCCCCCNC(=O)c1cccnc1	H37Rv		MIC		>100 µg/mL
COc1ccc(CNCCNC(C)c2cccc3ccccc23)cc1OC			MIC		50 µM
CN(C)c1ccc(N=C2C(=O)NC3C=CC=CN23)cc1	H37Rv		MIC		100 µg/mL
CC(C)=CCC/C(C)=C/CNCCNC1C2CC3CC(C2)CC1C3			MIC		9.4 µM
CCCCCCCC/C=C/CCCCCC1CCCC(C)N1	INH-r		MIC		6.3 µg/mL
COc1ccc(C2(c3ccc(OC)c(C)c3)OC(=O)c3cccc(OC)c32)cc1C	H37Rv		MIC		>100 µg/mL
COC(=O)[C@@]12OC[C@]34[C@H]([C@@H](O)[C@@H]1O)[C@@]1(C)CC(=O)C(O)=C(C)[C@@H]1C[C@H]3OC(=O)[C@H](OC(=O)C=C(C)C)[C@@H]24	H37Rv	BACTEC	MIC		≥12.8 µg/mL
CC(=O)Nc1cc([As](=O)(O)O)ccc1O	H37Rv		MIC		>100 µg/mL
O=C(NNC(=O)c1ccc(F)cc1)c1ccc(F)cc1	H37Rv	resazurin	MIC bound		>6.25 µg/mL
Nc1cccc(C(=O)/C=C/c2ccccc2I)c1			EC50		<12.5 µg/mL
Cn1c(=O)c2c(nc(Nc3ccc(Cl)cc3)n3c(=O)n(-c4ccccc4)c(=O)n23)n(C)c1=O	H37Rv	BACTEC	MIC bound		>12.5 µg/mL
COc1ccc(C(=O)SSC(=O)c2ccc(OC)c(OC)c2)cc1OC	H37Rv		MIC		>100 µg/mL
COC1=CC=C2Nc3nc(N)[nH]c(=O)c3SC2N1	H37Rv	BACTEC	inhibition	12.5 µg/mL	-6%
COc1cc(CNCCNC(C)Cc2c[nH]c3ccccc23)cc(OC)c1OC			MIC		50 µM
CO[C@@]12[C@H](COC(N)=O)C3=C(C(=O)C(C)=C(N)C3=O)N1C[C@H]1[C@@H]2N1C(=O)C1N2C(=O)[C@@H](NC(=O)Cc3ccccc3)[C@H]2SC1(C)C	PZA-R		MIC		<0.1 µg/mL
O=c1cc(CO)occ1O	H37Rv		MIC		100 µg/mL

Again, the opening 4 rows:

| smiles | strain or isolate | read by | measure | tested at | result |
|---|---|---|---|---|---|
| CC1=C(C)C(=O)C(C)=C(C)C1=O | H37Rv |  | MIC |  | >100 µg/mL |
| CC(/C=C1/C(=O)N(C)C(CC(C)C(Cl)(Cl)Cl)C(=O)N1C)C(Cl)(Cl)Cl | H37Rv | BACTEC | MIC bound |  | >12.5 µg/mL |
| CC(=O)c1ccc(NC(=O)CC(=O)Nc2ccc(C(C)=O)cc2)cc1 | H37Rv |  | MIC |  | 100 µg/mL |
| CC(C)c1cccc(C(C)C)c1NC(=O)C(=O)CC(=O)CC(c1ccccc1)c1c(O)c2ccccc2oc1=O | H37Rv | BACTEC | MIC bound |  | >12.5 µg/mL |